System: CTLL-2 cells
Assay: CTLL-2 assay (proliferation, Click-it labelling, flow cytometry)
Format: cell-based
Conditions: FIG. 2; Flavi virus derived peptide, dimerized vs monomeric; concentrations in μM

## DRGWGNGCGLFGKG
  inhibition of proliferation of CTLL-2 cells: significant inhibition of proliferation

From patent US10961279B2 (priority 2011, dated 2021)
